Earlier results as cited in patent US7205435B2 (priority 2001, dated 2007).

Amino acid sequences for entries named in this document (tags omitted).
UniProt P10844, whole entry, looked up: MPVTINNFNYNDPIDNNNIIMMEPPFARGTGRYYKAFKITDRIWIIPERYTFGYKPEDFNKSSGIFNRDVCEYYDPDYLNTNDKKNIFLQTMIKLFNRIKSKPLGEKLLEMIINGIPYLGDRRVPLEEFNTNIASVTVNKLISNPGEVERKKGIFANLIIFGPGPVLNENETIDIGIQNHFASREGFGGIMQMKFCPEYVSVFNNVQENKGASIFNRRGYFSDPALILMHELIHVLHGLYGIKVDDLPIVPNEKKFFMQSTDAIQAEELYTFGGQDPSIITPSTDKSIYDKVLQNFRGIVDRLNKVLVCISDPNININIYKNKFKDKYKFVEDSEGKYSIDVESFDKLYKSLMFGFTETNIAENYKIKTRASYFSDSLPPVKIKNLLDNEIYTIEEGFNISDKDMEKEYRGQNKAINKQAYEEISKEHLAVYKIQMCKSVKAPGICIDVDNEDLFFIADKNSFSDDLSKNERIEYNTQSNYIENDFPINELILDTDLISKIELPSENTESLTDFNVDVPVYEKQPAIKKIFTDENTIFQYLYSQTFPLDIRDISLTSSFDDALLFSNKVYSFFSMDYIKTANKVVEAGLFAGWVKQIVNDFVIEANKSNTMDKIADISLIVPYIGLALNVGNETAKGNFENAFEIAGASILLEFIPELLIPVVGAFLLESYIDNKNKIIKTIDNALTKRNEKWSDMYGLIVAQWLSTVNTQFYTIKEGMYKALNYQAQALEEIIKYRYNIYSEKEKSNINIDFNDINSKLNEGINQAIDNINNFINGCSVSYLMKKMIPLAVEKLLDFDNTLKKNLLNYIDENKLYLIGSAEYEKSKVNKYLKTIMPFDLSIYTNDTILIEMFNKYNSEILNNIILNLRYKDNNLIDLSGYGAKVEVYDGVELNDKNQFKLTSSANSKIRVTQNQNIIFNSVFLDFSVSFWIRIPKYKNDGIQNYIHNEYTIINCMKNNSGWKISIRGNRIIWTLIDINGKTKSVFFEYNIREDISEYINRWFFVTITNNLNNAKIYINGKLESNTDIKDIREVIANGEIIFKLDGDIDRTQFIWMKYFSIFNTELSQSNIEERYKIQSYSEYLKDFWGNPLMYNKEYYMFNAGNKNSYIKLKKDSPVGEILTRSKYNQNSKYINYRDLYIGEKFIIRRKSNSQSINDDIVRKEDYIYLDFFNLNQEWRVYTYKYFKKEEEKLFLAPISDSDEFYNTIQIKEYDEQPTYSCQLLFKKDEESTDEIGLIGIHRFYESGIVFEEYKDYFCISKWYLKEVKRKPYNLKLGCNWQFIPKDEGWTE

Target: BoNT/B (Clostridium botulinum, UniProt P10844)

For “7-N-phenylcarbamoylamino-4-chloro-3-propyloxycoumarin [ICD 1578]”, the IC50 is given as 27 µM.
